Drawing on patent publication US8299021B2, “Macrocyclic inhibitors of hepatitis C virus replication” (InterMune, Inc., priority 2005, dated 2012), this text covers IC50 for 1 molecule.

By UniProt entry, the sequences of proteins in these tests, tags left out. Residues count along the entry.
UniProt P27958, 1027-1657 limits assumed: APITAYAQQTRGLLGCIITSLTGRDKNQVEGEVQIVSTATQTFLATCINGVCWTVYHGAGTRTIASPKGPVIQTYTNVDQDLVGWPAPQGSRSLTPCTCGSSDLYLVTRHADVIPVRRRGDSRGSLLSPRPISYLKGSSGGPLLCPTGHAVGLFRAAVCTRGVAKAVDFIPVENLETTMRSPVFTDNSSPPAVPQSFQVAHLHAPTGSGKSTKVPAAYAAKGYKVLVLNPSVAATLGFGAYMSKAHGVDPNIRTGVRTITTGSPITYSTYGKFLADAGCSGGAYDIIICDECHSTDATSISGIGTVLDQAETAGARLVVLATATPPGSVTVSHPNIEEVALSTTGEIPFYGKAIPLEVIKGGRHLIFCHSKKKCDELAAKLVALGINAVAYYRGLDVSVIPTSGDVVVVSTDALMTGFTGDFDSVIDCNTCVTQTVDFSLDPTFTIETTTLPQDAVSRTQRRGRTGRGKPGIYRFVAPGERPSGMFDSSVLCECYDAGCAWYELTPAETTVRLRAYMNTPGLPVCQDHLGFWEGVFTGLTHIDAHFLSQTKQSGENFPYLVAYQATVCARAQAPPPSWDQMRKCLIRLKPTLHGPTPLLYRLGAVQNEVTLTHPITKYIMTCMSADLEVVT

The experiment has as its target NS3-NS4 protease (full-length NS3/NS4A-2) (Hepatitis C virus genotype 1a, UniProt P27958). In words: NS3-NS4 protease assay / NS3 inhibition assay (RETS1 substrate, fluorescence kinetic read). The experiment is classed as biochemical. The settings on record: read-out: NS3-NS4 IC50.

The structures given here were assigned with low confidence; some may be wrong.

The term IC50 denotes the concentration that gives 50% inhibition. For `O=C(CCC(F)(F)F)N[C@H]1CCCCC/C=C\[C@@H]2C[C@@]2(C(=O)NS(=O)(=O)C2CC2)NC(=O)[C@@H]2C[C@@H](OC(=O)N3Cc4ccccc4C3)CN2C1=O`, the IC50 was less than 100 nM.
